SMILES strings stand for the structures. Values after ≈ are worked out from the molar mass of the structure shown. Counter-ions that a name gives are not always drawn.

These results are taken from paper PMC12777753 (Emerging Microbes & Infections, 2025).

Experiment [1] has as its target NA of A/California/146/2024, NA-S439G (Influenza A virus, UniProt Q9Q0U7, S439G). The settings on record: virus with NA-S439G.
The test system of experiment [2] is A/Washington/239/2024, NA-K432R. The settings on record: A/Washington/239/2024 (genotype D1.1); M2 blocker range 3.9–1000 ng/mL.
The test system of experiment [3] is A/California/135/2024, NA-S439G. The note with it: A/California/135/2024 (genotype B3.13); M2 blocker range 3.9–1000 ng/mL.
The subject of experiment [4] is A/Washington/240/2024, NA-K432R. The settings on record: A/Washington/240/2024 (genotype D1.1); M2 blocker range 3.9–1000 ng/mL.
For experiment [5], the system named is A/California/146/2024, NA-S439G. The note with it: A/California/146/2024 (genotype B3.13); M2 blocker range 3.9–1000 ng/mL.
Another experiment deals with A/Iowa/24/2024, M2-S31N. The settings on record: A/Iowa/24/2024, M2-S31N (genotype D1.1); M2 blocker range 3.9–1000 ng/mL.

`CC(=O)N[C@H]1[C@H]([C@H](O)[C@H](O)CO)OC(C(=O)O)=C[C@@H]1N=C(N)N`: the interpretation of inhibition entry in experiment [1] is “normal inhibition (normal inhibition if <10-fold)”.
For `NC12CC3CC(CC(C3)C1)C2` [Amantadine, amantadine hydrochloride], the “EC50 ± SD” value in experiment [2] is 0.00925 ± 0.00247 µg/mL; in experiment [3] it was 0.01827 ± 0.00109 µg/mL; in experiment [4], 0.01141 ± 0.003 µg/mL; in experiment [5], 0.02154 ± 0.00386 µg/mL; in the experiment with A/Iowa/24/2024, M2-S31N, more than 1 µg/mL.
`CC(N)C12CC3CC(CC(C3)C1)C2` (centres unmarked) [Rimantadine, rimantadine]: the “EC50 ± SD” value in experiment [2] was 0.00314 ± 0.00031 µg/mL (≈ 0.0175 µM); in experiment [3], 0.00483 ± 0.00015 µg/mL (≈ 0.0269 µM); in experiment [4], 0.00346 ± 8e-05 µg/mL (≈ 0.0193 µM); in experiment [5], 0.00648 ± 0.00114 µg/mL (≈ 0.0361 µM); in the experiment with A/Iowa/24/2024, M2-S31N, more than 1 µg/mL.
